Pooled drug test results. Numbers come from NIAID ChemDB, via PubChem.

Shared fields: growth or infection tests; agent: Hepatitis B virus; read-out: EC50

a–b is a range or a potency band.

SMILES | cell line | setting | read by | strain | value
CNC(=O)c1ccc(-n2c(=O)c3c(n4ncc(NCc5ccccc5)c24)CN(C(=O)c2ccc(Cl)c(Cl)c2)CC3)cc1 | HepG2.117 | 3 d | PCR | - | <0.1 µM
CCOC(=O)C1=C(CN2CC(F)(F)[C@@H]3[C@H]2CON3C[C@H](OC)C(C)(C)C(=O)O)NC(c2nccs2)=N[C@H]1c1ccc(F)cc1Cl | HepG2.2.15 | - | PCR | - | 0.016 µM
Cn1cc(S(=O)(=O)N[C@@H]2CCN(S(=O)(=O)C3CC3)C2)c(F)c1C(=O)Nc1ccc(F)c(F)c1 | HepAD38 cells | - | PCR | - | <0.1 µM
Cn1nc2cc(NS(=O)(=O)c3ccn(-c4cccc(N)n4)n3)ccc2c1C(=O)Nc1ccc(F)c(Cl)c1 | HepAD38 | - | PCR | - | 100–1000 µM
O=C(NCc1ccccc1)c1c2n(c(=O)n1-c1ccc(N3CCO[C@H](C(F)(F)F)C3)cc1)CCN(C(=O)c1ccc(Br)c(Cl)c1)C2 | HepG2.117 | - | PCR | - | 0.1–0.5 µM
C[C@@H]1Cc2c(n3ncc(CC4CCC4)c3n(-c3ccc(-c4n[nH]nc4N)cc3)c2=O)CN1C(=O)c1ccc(Br)c(C(F)(F)F)c1 | HepG2.117 | - | luminescence | - | ≤0.05 µM
CN1[C@H](C(=O)Nc2ccc(F)c(Cl)c2)C[C@H](c2ncc(-c3cn(C)cn3)s2)NS1(=O)=O | HepG2-NTCP | - | ELISA / antigen | Genotype D | 0.719 µM
Cc1n[nH]nc1-c1cc(-n2c(=O)c3c(n4ncc(Cc5ccccc5)c24)CN(C(=O)c2ccc(Br)c(C(F)(F)F)c2)[C@H](C)C3)nn1C | HepG2.117 | - | luminescence | - | ≤0.05 µM
C[C@H]1CS(=O)(=O)[C@](F)(c2ncc(Cc3ccccc3)s2)CN1C(=O)c1ccc(Br)c(Cl)c1 | HepG2.117 | - | PCR | - | 0.1–0.5 µM
C=CC1(NC(=O)C(=O)c2c(C)c(C(=O)Nc3ccc(F)c(C#N)c3)n(C)c2Cl)COC1 | HepG2.2.15 | - | PCR | - | 0.001–0.0099 µM
Cc1n[nH]nc1-c1ccc(-n2c(=O)c3c(n4ncc(Cc5ccccc5)c24)CN(C(=O)c2ccc(Br)c(C(F)(F)F)c2)CC3)cc1 | HepG2.117 | - | luminescence | - | ≤0.05 µM
C#CC(C)(C)NC(=O)C(=O)c1c(C)c(C(=O)Nc2ccc(F)c(C#N)c2)n(C)c1C | HepG2.2.15 | - | PCR | - | <0.001 µM
CCOC(=O)C1=C(CN2CC(F)(F)[C@@H]3[C@H]2CON3C[C@H](OC)C(C)(C)C(=O)O)NC(c2nccs2)=N[C@H]1c1ccc(F)c(F)c1Cl | HepG2.2.15 | - | PCR | - | 0.0035 µM
Cn1nc2cc(NS(=O)(=O)c3cnn(C4CNC4)c3)ccc2c1C(=O)Nc1ccc(F)c(Cl)c1 | HepAD38 | - | PCR | - | 100–1000 µM
C[C@@H]1Cc2c(n3ncc(CC4CC4)c3n(-c3ccc(-c4nncn4C)cc3)c2=O)CN1C(=O)c1ccc(Br)c(C(F)(F)F)c1 | HepG2.117 | - | luminescence | - | ≤0.05 µM
COc1ccc([C@@H](C)NC(=O)c2c3n(c(=O)n2-c2ccc(OC4CC4)cc2)CCN(C(=O)c2ccc(Br)c(Cl)c2)C3)c(F)c1 | HepG2.117 | - | PCR | - | <0.1 µM
O=C(Nc1ccc(F)c(Cl)c1)N1CCS(=O)(=O)[C@@H](c2cccs2)C1 | HepG2.2.15 | - | PCR | - | 0.1–0.5 µM
CNC(=O)C(=O)N1CC[C@@H](NS(=O)(=O)c2cn(C3CCCC3)c(C(=O)Nc3ccc(F)c(F)c3)c2F)C1 | HepAD38 cells | - | PCR | - | 0.3–1 µM
CCOC(=O)C1=C(CN2CC(F)(F)[C@@H]3[C@H]2CON3CC[C@](C)(OC)C(=O)O)NC(c2nccs2)=N[C@H]1c1ccc(F)c(F)c1Cl | HepG2.2.15 | - | PCR | - | 0.0345 µM
Cn1nc2ccc(N)cc2c1C(=O)Nc1ccc(F)c(Cl)c1 | HepAD38 | - | PCR | - | 100–1000 µM
O=C(c1ccc(Br)c(Cl)c1)N1CCc2c(n3ncc(Cc4ccccc4)c3n(-c3ccc(-n4cccn4)cc3)c2=O)C1 | HepG2.117 | 3 d | PCR | - | >5 µM
C#CCc1cnn2c3c(c(=O)n(-c4ccc(C(=O)NC)cc4)c12)C[C@@H](C)N(C(=O)c1ccc(Br)c(C(F)(F)F)c1)C3 | HepG2.117 | - | luminescence | - | ≤0.05 µM
CCOC(=O)C1=C(CN2CC(F)(F)[C@@H]3[C@H]2CON3CC(CC(C)(C)C(=O)O)OC)NC(c2nccs2)=N[C@H]1c1cccc(F)c1C | HepG2.2.15 | - | PCR | - | 0.009 µM
C#C[C@](CO)(NC(=O)C(=O)c1c(C)c(C(=O)Nc2ccc(F)c(C(F)(F)F)c2)n(C)c1C)C(F)(F)F | HepG2.2.15 | - | PCR | - | 0.01–0.099 µM
Cn1nc2cc(NS(=O)(=O)N3CCOCC3)ccc2c1C(=O)Nc1ccc(F)c(Cl)c1 | HepAD38 | - | PCR | - | 100–1000 µM
CCOC(=O)C1=C(CN2CC(F)(F)[C@@H]3[C@H]2CON3C[C@@H](OC)C(C)(C)C(=O)O)NC(c2nc(C)cs2)=N[C@H]1c1cccc(F)c1C | HepG2.2.15 | - | PCR | - | 0.001 µM
CC[C@@H]1Cc2c(n3ncc(Cc4ccccc4)c3n(-c3ccc4c(NC)n[nH]c4c3)c2=O)CN1C(=O)c1ccc(Br)c(C(F)(F)F)c1 | HepG2.117 | - | luminescence | - | ≤0.05 µM
CCOC(=O)C1=C(CN2CC(F)(F)[C@H]3[C@@H]2CCN3C[C@](C)(O)C(=O)O)NC(c2nc(C)cs2)=N[C@H]1c1cccc(F)c1C | HepG2.2.15 | - | PCR | - | 0.004 µM
CNC(=O)C(=O)N1CC[C@@H](NS(=O)(=O)c2cn(C3CC3)c(C(=O)Nc3ccc(F)c(F)c3)c2F)C1 | HepAD38 cells | - | PCR | - | <0.1 µM
O=C(c1ccc(Br)c(Cl)c1)N1CCS(=O)(=O)[C@](F)(c2ncc(Cc3ccccc3-c3ncccn3)s2)C1 | HepG2.117 | - | PCR | - | 0.5–5 µM
Cn1nc2cc(NS(=O)(=O)c3cnn(C4CCNC4)c3)ccc2c1C(=O)Nc1ccc(F)c(Cl)c1 | HepAD38 | - | PCR | - | <100 µM
C#C[C@@H](NC(=O)C(=O)c1c(C)c(C(=O)Nc2ccc(F)c(C(F)(F)F)c2)n(C)c1C)C1CC1 | HepG2.2.15 | - | PCR | - | <0.001 µM
COc1ccc(-n2c(=O)c3c(n4ncc(NC(=O)Cc5ccccc5)c24)CN(C(=O)c2ccc(Cl)c(Cl)c2)CC3)cc1 | HepG2.117 | 3 d | PCR | - | >5 µM
O=C(NCc1ccccc1-c1nnco1)c1c2n(c(=O)n1-c1ccc(OC3CC3)cc1)CCN(C(=O)c1ccc(Br)c(Cl)c1)C2 | HepG2.117 | - | PCR | - | <0.1 µM
Cn1cc(S(=O)(=O)NC2CCN(C(=O)C(N)=O)CC2)c(F)c1C(=O)Nc1cc(F)c(F)c(F)c1 | HepAD38 cells | - | PCR | - | <0.1 µM
Cc1c(C(=O)C(=O)NC(C)(C)c2ccc[nH]c2=O)c(C)n(C)c1C(=O)Nc1ccc(F)c(C(F)(F)F)c1 | HepG2.2.15 | - | PCR | - | 0.001–0.0099 µM
CCOC(=O)C1=C(CN2CC(F)(F)[C@@H]3[C@H]2CON3C[C@H](O)C(C)(C)C(=O)O)NC(c2nccs2)=N[C@H]1c1cccc(F)c1C | HepG2.2.15 | - | PCR | - | 0.064 µM
O=C(NCc1ccccc1)c1c2n(c(=O)n1-c1ccc(N3CCC(F)(F)C3)cc1)CCN(C(=O)c1ccc(Br)c(Cl)c1)C2 | HepG2.117 | - | PCR | - | 0.1–0.5 µM
Cc1ncnn1-c1ccc(-n2c(=O)c3c(n4ncc(Cc5ccccc5)c24)CN(C(=O)c2ccc(Br)c(C(F)(F)F)c2)CC3)cc1 | HepG2.117 | - | luminescence | - | ≤0.05 µM
CCOC(=O)C1=C(CN2CC(F)(F)[C@@H]3[C@H]2CON3C[C@@H](OC)C(C)(C)C(=O)O)NC(c2nccs2)=N[C@H]1c1ccc(F)cc1Cl | HepG2.2.15 | - | PCR | - | 0.025 µM
O=C(c1ccc(Br)c(Cl)c1)N1CCS(=O)(=O)[C@H](c2cccs2)C1 | HepG2.2.15 | - | PCR | - | 0.1–0.5 µM
N#Cc1ccc(-n2c(C(=O)NCc3ccccc3)c3n(c2=O)CCN(C(=O)c2ccc(Br)c(Cl)c2)C3)cc1 | HepG2.117 | - | PCR | - | 0.5–5 µM
Cn1nc2cc(NS(=O)(=O)N3[C@@H]4CC[C@H]3CC(O)C4)ccc2c1C(=O)Nc1ccc(F)c(Cl)c1 | HepAD38 | - | PCR | - | 100–1000 µM
O=C(NCCc1ccccc1)c1c2n(c(=O)n1-c1ccccc1)CCN(C(=O)c1ccc(Br)c(Cl)c1)C2 | HepG2.117 | - | PCR | - | 0.5–5 µM
Cn1nc2cc(NS(=O)(=O)NCC3CN(c4ccccc4)C3)ccc2c1C(=O)Nc1ccc(F)c(Cl)c1 | HepAD38 | - | PCR | - | >1000 µM
Cc1cnn(-c2ccc(-n3c(=O)c4c(n5ncc(CC(C)C)c35)CN(C(=O)c3ccc(Br)c(C(F)(F)F)c3)[C@@H](C)C4)cc2)c1 | HepG2.117 | - | luminescence | - | 0.05–0.5 µM
COc1ccc(-n2c(C(=O)NCc3ccc(OC)cc3Cl)c3n(c2=O)CCN(C(=O)c2ccc(Cl)c(Cl)c2)C3)cc1 | HepG2.117 | - | PCR | - | 0.5–5 µM
C[C@@H]1Cc2c(n3ncc(Cc4ccccc4)c3n(-c3ccc(-c4noc(=O)n4C)cc3)c2=O)CN1C(=O)c1ccc(Br)c(C(F)(F)F)c1 | HepG2.117 | - | luminescence | - | ≤0.05 µM
Cn1nc2cc(NS(=O)(=O)c3cnn(C4CC4)c3)ccc2c1C(=O)Nc1ccc(F)c(Cl)c1 | HepAD38 | - | PCR | - | <100 µM
CNC(=O)c1ccc(-n2c(=O)c3c(n4ncc(NC(C)c5ccccc5)c24)CN(C(=O)c2ccc(Br)c(C#N)c2)CC3)cc1 | HepG2.117 | 3 d | PCR | - | 0.1–0.5 µM
Cn1nc2cc(S(=O)(=O)NCC3CNC3)ccc2c1C(=O)Nc1ccc(F)c(Cl)c1 | HepAD38 | - | PCR | - | >1000 µM
O=C(NCc1cccc2[nH]cnc12)c1c2n(c(=O)n1-c1ccc(OCC(F)(F)F)cc1)CCN(C(=O)c1ccc(Br)c(Cl)c1)C2 | HepG2.117 | - | PCR | - | 0.5–5 µM
Cc1c(C(=O)C(=O)NC2(C#CC(F)(F)F)CC(O)C2)c(C)n(C)c1C(=O)Nc1ccc(F)c(C#N)c1 | HepG2.2.15 | - | PCR | - | 0.1–0.999 µM

7 of the rows above, restated:

SMILES | cell line | setting | read by | strain | value
O=C(NCc1ccccc1)c1c2n(c(=O)n1-c1ccc(N3CCO[C@H](C(F)(F)F)C3)cc1)CCN(C(=O)c1ccc(Br)c(Cl)c1)C2 | HepG2.117 | - | PCR | - | 0.1–0.5 µM
CCOC(=O)C1=C(CN2CC(F)(F)[C@@H]3[C@H]2CON3CC[C@](C)(OC)C(=O)O)NC(c2nccs2)=N[C@H]1c1ccc(F)c(F)c1Cl | HepG2.2.15 | - | PCR | - | 0.0345 µM
Cc1n[nH]nc1-c1cc(-n2c(=O)c3c(n4ncc(Cc5ccccc5)c24)CN(C(=O)c2ccc(Br)c(C(F)(F)F)c2)[C@H](C)C3)nn1C | HepG2.117 | - | luminescence | - | ≤0.05 µM
CCOC(=O)C1=C(CN2CC(F)(F)[C@@H]3[C@H]2CON3C[C@H](O)C(C)(C)C(=O)O)NC(c2nccs2)=N[C@H]1c1cccc(F)c1C | HepG2.2.15 | - | PCR | - | 0.064 µM
CNC(=O)c1ccc(-n2c(=O)c3c(n4ncc(NC(C)c5ccccc5)c24)CN(C(=O)c2ccc(Br)c(C#N)c2)CC3)cc1 | HepG2.117 | 3 d | PCR | - | 0.1–0.5 µM
C#CCc1cnn2c3c(c(=O)n(-c4ccc(C(=O)NC)cc4)c12)C[C@@H](C)N(C(=O)c1ccc(Br)c(C(F)(F)F)c1)C3 | HepG2.117 | - | luminescence | - | ≤0.05 µM
O=C(NCCc1ccccc1)c1c2n(c(=O)n1-c1ccccc1)CCN(C(=O)c1ccc(Br)c(Cl)c1)C2 | HepG2.117 | - | PCR | - | 0.5–5 µM

Blank or dashed fields: not listed here. ECn is the concentration giving n% inhibition of infection, replication or growth. Neighbouring rows are from separate reports.